These results are taken from article PMC10837205, “LDLR is an entry receptor for Crimean-Congo hemorrhagic fever virus” (2024).

This assay has as its target biotinylated soluble human LDLR (sohLDLR), human, P01130-1 22-788. Description: BLI. (In general: Biolayer interferometry detects binding as a change in optical thickness at a sensor tip.)

As usually defined, the Kd is the constant that tells how readily two partners part at equilibrium. Higher therefore signals lower affinity.

In turn, “monomeric Gc ectodomain of CCHFV IbAr 10200 strain biotin (biotinylated; site not stated)” had a dissociation constant Kd of 42.6 nM. That is a double-digit nanomolar value.
